Target: ArsR (Escherichia coli, UniProt P15905)
Test: Surface plasmon resonance (BIAcore): ArsR binding to immobilized dsDNA in the presence of arsenic ligand
Settings: PAO 100 μM (highest concentration); ArsR 3.27 μM injected over PLASL1 and CHROML1 surfaces; HBS-EP, 25° C.

Sequences of proteins named here, by UniProt entry; tags and fusion partners are left off. A change or cut given only in a name is not applied to a line headed by its entry.
UniProt P15905: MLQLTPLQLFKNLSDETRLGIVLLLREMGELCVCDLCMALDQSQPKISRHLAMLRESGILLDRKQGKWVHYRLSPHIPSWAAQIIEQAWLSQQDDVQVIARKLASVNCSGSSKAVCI

SMILES: O=[As]c1ccccc1 (stereo not shown)
- inhibition of ArsR binding: about 55%

Source: patent US20040115786A1 (priority 2001, published 2004)
